Results of unrelated studies side by side (data: NIAID ChemDB).

All rows: tests on isolated targets; agent: HIV-1; target: Reverse transcriptase; read-out: fold resistance

a–b is a range or a potency band.

smiles	strain	changes	method	result
CC(Sc1nnc(Br)n1-c1ccc(C2CC2)c2ccccc12)C(=O)Nc1ccc(S(N)(=O)=O)cc1Cl		RT-Y188L	nucleotide incorporation / radiometric	>2
CCN1c2ncc(CCOc3ccc(/C=C(\C)C(=O)O)c4ccccc34)cc2C(=O)N(C)c2ccc(C)nc21		RT-K103N Y181C	nucleotide incorporation / radiometric	1–10
CCN1c2ncc(CCOc3cccc(-c4ccccc4)c3)cc2C(=O)N(C)c2cccnc21	IIIB	RT-K103N Y181C	nucleotide incorporation / radiometric	>2
Cc1cc(C(=O)O)ccc1NC(=O)CSc1nnc(C(F)F)n1-c1ccc(C)c2c1CCCC2		RT-Y188L	nucleotide incorporation / radiometric	>2
CCN1c2ncc(CCOc3ccc(CC(C)C(=O)O)c4ccccc34)cc2C(=O)N(C)c2ccc(F)nc21		RT-V106A	nucleotide incorporation / radiometric	>10
CCN1c2ncc(CCOc3ccc(C(=O)Nc4cccnc4C)cc3C)cc2C(=O)N(C)c2cccnc21	IIIB	RT-K103N Y181C	nucleotide incorporation / radiometric	1
CCN1c2ncc(CCOc3ccc(/C=C(\C)C(=O)O)c4ccccc34)cc2C(=O)Nc2c(C)cc(Cl)nc21		RT-K103N Y181C	nucleotide incorporation / radiometric	1–10
CCN1c2ncc(CCOc3ccc(-c4ccc(C(=O)O)c(F)c4)cc3C)cc2C(=O)N(C)c2cccnc21	IIIB	RT-K103N Y181C	nucleotide incorporation / radiometric	1
CCNC(=O)N1CCc2c(OCCc3cnc4c(c3)C(=O)N(C)c3cccnc3N4CC)ccc(C(=O)O)c2C1		RT-V106A	nucleotide incorporation / radiometric	1–10
Cc1ccc(-n2c(SCC(=O)Nc3ccc(S(=O)(=O)NC(C)C(=O)O)cc3Cl)nnc2C(F)F)c2c1CCCC2		RT-Y188L	nucleotide incorporation / radiometric	>2
Cc1c(Cc2ccccc2)nc(NCCCCN)[nH]c1=O		RT-L100I		>10.3
CCN1c2ncc(CCOc3ccc(CC(=O)O)c4c3CCCC4)cc2C(=O)N(C)c2ccc(Cl)nc21		RT-Y188L	nucleotide incorporation / radiometric	1–10
CCN1c2ncc(CCOc3cccc4c3ccc[n+]4[O-])cc2C(=O)N(C)c2ccc(Cl)nc21		RT-Y188L	nucleotide incorporation / radiometric	43.9
Cc1c(Cc2ccccc2)nc(SCCCCO)[nH]c1=O		RT-K103N		1.19
Cc1ccc(-n2c(SCC(=O)Nc3ccc(S(=O)(=O)NC(C(=O)O)C(C)C)cc3Cl)nnc2C(F)F)c2c1CCCC2		RT-Y181C	nucleotide incorporation / radiometric	>2
COC(=O)NCCCCNc1nc(Cc2ccccc2)c(C)c(=O)[nH]1		RT-Y181I		>43.5
COc1cccc2c(-n3c(Br)nnc3SCC(=O)Nc3ccc(C(=O)O)cc3Cl)cccc12		RT-Y188L	nucleotide incorporation / radiometric	>2
CCN1c2ncc(CCOc3ccc(-c4ccc(C)cc4)cc3C)cc2C(=O)N(C)c2cccnc21	IIIB	RT-K103N Y181C	nucleotide incorporation / radiometric	1
NS(=O)(=O)c1ccc(NC(=O)CSc2nnc(C(F)F)n2-c2ccc(C3CCCC3)c3ccccc23)c(Cl)c1		RT-Y188L	nucleotide incorporation / radiometric	>2
CCN1c2ncc(CCOc3ccc(C(=O)O)c4c3CCCC4)cc2C(=O)N(C)c2ccc(C)nc21		RT-V106A	nucleotide incorporation / radiometric	>10
CCc1ccc(-n2c(Br)nnc2SCC(=O)Nc2ccc(S(N)(=O)=O)cc2Br)c2ccccc12		RT-Y188L	nucleotide incorporation / radiometric	>1
CCN1c2ncc(CCOc3ccc(C(=O)NCC4(C(=O)O)CCCC4)cc3C)cc2C(=O)N(C)c2cccnc21	IIIB	RT-K103N Y181C	nucleotide incorporation / radiometric	>2
CCc1ccc(-n2c(Br)nnc2SCC(=O)Nc2ccc(C(=O)N3CCCCC3CO)cc2Cl)c2ccccc12		RT-Y188L	nucleotide incorporation / radiometric	>2
CCN1c2ncc(CCOc3ccc(Nc4ccc(C(=O)O)cc4)cc3C)cc2C(=O)N(C)c2cccnc21	IIIB	RT-K103N Y181C	nucleotide incorporation / radiometric	1
CCc1cc(CCc2nc3ccccc3o2)c(=O)[nH]c1C		RT-Y181W	nucleotide incorporation	16.8
CCN1c2ncc(CCOc3ccc(CC(=O)NN)c4ccccc34)cc2C(=O)N(C)c2cccnc21		RT-V106A	nucleotide incorporation / radiometric	1–10
CCc1ccc(-n2c(Br)nnc2SCC(=O)Nc2ccc(S(N)(=O)=O)cc2Cl)c2c1CCCC2		RT-Y188L	nucleotide incorporation / radiometric	>1
CCN1c2ncc(CCOc3ccc(C(=O)O)c4ccccc34)cc2C(=O)Nc2c(C)cc(F)nc21		RT-K103N Y181C	nucleotide incorporation / radiometric	1–10
CC(C)=CCN1Cc2cccc3[nH]c(=S)n(c23)C[C@@H]1C		RT-Y188L	nucleotide incorporation	532
CNS(=O)(=O)c1ccc(NC(=O)CSc2nnc(C(F)F)n2-c2ccc(C)c3c2CCCC3)c(Cl)c1		RT-Y188L	nucleotide incorporation / radiometric	>2
CCN1c2ncc(CCOc3ccc(NC(=O)CC(C)(C)C(=O)O)c4ccccc34)cc2C(=O)N(C)c2cccnc21		RT-V106A	nucleotide incorporation / radiometric	>10
CCN1c2ncc(CCOc3ccc(-c4ccc(O)cc4)cc3C)cc2C(=O)N(C)c2cccnc21	IIIB	RT-K103N Y181C	nucleotide incorporation / radiometric	1
CCc1cc(C2CC2)ccc1-n1c(Br)nnc1SCC(=O)Nc1ccc(C(=O)O)cc1Cl		RT-Y181C	nucleotide incorporation / radiometric	>1

The last 5 rows once more:

smiles	strain	changes	method	result
CC(C)=CCN1Cc2cccc3[nH]c(=S)n(c23)C[C@@H]1C		RT-Y188L	nucleotide incorporation	532
CNS(=O)(=O)c1ccc(NC(=O)CSc2nnc(C(F)F)n2-c2ccc(C)c3c2CCCC3)c(Cl)c1		RT-Y188L	nucleotide incorporation / radiometric	>2
CCN1c2ncc(CCOc3ccc(NC(=O)CC(C)(C)C(=O)O)c4ccccc34)cc2C(=O)N(C)c2cccnc21		RT-V106A	nucleotide incorporation / radiometric	>10
CCN1c2ncc(CCOc3ccc(-c4ccc(O)cc4)cc3C)cc2C(=O)N(C)c2cccnc21	IIIB	RT-K103N Y181C	nucleotide incorporation / radiometric	1
CCc1cc(C2CC2)ccc1-n1c(Br)nnc1SCC(=O)Nc1ccc(C(=O)O)cc1Cl		RT-Y181C	nucleotide incorporation / radiometric	>1

Fold resistance: result on the changed form divided by that on wild type. Lines come from different laboratories, so protocols vary. Blank or dashed fields: not listed here.